{
  "source": "paper PMC9792601",
  "about": "(Frontiers in Chemistry, 2022)",
  "assay": "general procedure: Fmoc solid-phase peptide synthesis; Fmoc-Gly preloaded Wang resin (loading 0.4-0.9 mmol/g); COMU/DIPEA or DIC/OxymaPure",
  "details": "whole synthesis, scale of the general procedure 0.1 mmol",
  "note": "Some peptides are written in HELM: one residue between dots, names in brackets for other building blocks, links after the first $.",
  "data": [
    {"substance": "PEPTIDE1{A.I.A.I.G.V.V.Q.G.L.A.F.A.L.G.G.K.K.K.G}$$$$V2.0", "values": [
      {"measurement": "final HPLC purity", "setting": "200-203 nm", "value": 96, "unit": "%"},
      {"measurement": "isolated yield", "value": 60, "unit": "%"}
    ]}
  ]
}
